Data reported in ChEMBL document CHEMBL4190388, “Discovery and Optimization of Indolyl-Containing 4-Hydroxy-2-Pyridone Type II DNA Topoisomerase Inhibitors Active against Multidrug Resistant Gram-negative Bacteria” (J Med Chem, 2018).

Legend:
[1] = Selectivity ratio of MIC for fluoroquinolone resistant Escherichia coli SKM18 to MIC for wild type Escherichia coli ATCC 25922; format: functional
Procedure, shortened: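 MICs were determined by CLSI guidelines with growth in brain–heart–infusion medium, against fluoroquinolone-resistant E. coli SKM18 and wild-type E. coli ATCC 25922. The ratio is SKM18 MIC over ATCC 25922 MIC.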

[2] = Selectivity ratio of MIC for quinolone resistant Escherichia coli isolate ELZ4251 harboring gyrA/parC mutant to MIC for wild type Escherichia coli ATCC 25922; format: functional

`Cn1c(CNC2(C)CCC2)cc2cc3c(cc21)CCCc1c-3[nH]c(=O)c(C(=O)O)c1O` gave a Ratio [1] of 2 to 4 and a Ratio [2] of 2 to 4.
Work on `Cn1c(CN2CCCC2)cc2cc3c(cc21)CCCc1c-3[nH]c(=O)c(C(=O)O)c1O` yielded a Ratio [1] of 2 to 4 and a Ratio [2] of 2 to 4.
With `CC(C)NCc1cc2cc3c(cc2n1C)CCCc1c-3[nH]c(=O)c(C(=O)O)c1O` the Ratio [1] was 2 to 4 and the Ratio [2] was 2 to 4.
`CNCc1cc2cc3c(cc2n1C)CCCc1c-3[nH]c(=O)c(C(=O)O)c1O` showed a Ratio [1] of 2 to 4 and a Ratio [2] of 2 to 4.
`CN(C)Cc1cc2cc3c(cc2n1C)CCCc1c-3[nH]c(=O)c(C(=O)O)c1O` showed a Ratio [1] of 2 to 4 and a Ratio [2] of 2 to 4.
